Results of unrelated studies side by side (data: NIAID ChemDB).

Shared fields: whole-cell or culture tests; agent: HIV-1; measure: fold resistance

An empty or dashed field is not shown. Neighbouring rows are from separate reports. Fold resistance has wild type as its base.

| SMILES | cells | changes | read by | strain | result |
|---|---|---|---|---|---|
| CCc1c(C)[nH]c(=O)c(C(C)C)c1Oc1cc(C)cc(C)c1 | MT-4 | RT-Y188L | cytopathic effect / MTT | - | 2 |
| CC1=C(C(=O)Nc2ccc(Cl)c(OCC=C(Cl)Cl)c2)SCCO1 | CEM | RT-V106A | syncytia | Nevirapine-resistant isolate (RT V106A) | 1.67 |
| CCc1c(C)[nH]c(=O)c(I)c1Oc1cc(C)cc(C)c1 | MT-4 | RT-L100I K103N | cytopathic effect / MTT | - | 16 |
| Cc1cc(OCCCS(N)(=O)=O)ccc1NC(=O)COc1ccc(Cl)cc1C(=O)c1cc(F)cc(C(F)(F)F)c1 | HeLa + HELA CD4+ | RT-K103N P225H | β-galactosidase | HXB2 | ~1 |
| Cc1occc1C(=S)Nc1ccc(Cl)c(C(=O)OC(C)C)c1 | CEM + CEM-SS | RT-D67N K70R L100I T215Y K219Q | cytopathic effect / XTT | 4xAZT/L100I(RT-D67N K70R T215Y K219Q L100I) | 30 |
| CCN1c2ncc(CCOc3ccc(-c4ccc(C(=O)O)nc4)cc3C)cc2C(=O)N(C)c2cccnc21 | C8166 | RT-K103N Y181C | p24 | - | 1 |
| CC(C)C(OC(=O)c1cc(NC(=S)c2cccn2C)ccc1Cl)C(C)C | CEM + CEM-SS | RT-T139I | cytopathic effect / XTT | CALO(RT-T139I) | 6.67 |
| Cc1cc(C#N)cc(C(=O)c2cc(Cl)ccc2OCC(=O)Nc2ccc(S(N)(=O)=O)cc2C)c1 | HeLa + HELA CD4+ | RT-K103N G190A | β-galactosidase | HXB2 (RT-K103N G190A) Recombinant | ~1 |
| CCC(=O)c1ccc(F)c([C@@H]2C[C@@H]2NC(=O)Nc2ccc(C#N)cn2)c1O | TZM-bl | NNRTI-resistant (RT K103N/G190A) | β-galactosidase / luminescence | LAI | 1.6 |
| CCc1c(C)[nH]c(=O)c(OC)c1Oc1cc(C)cc(C)c1 | MT-4 | RT-K103N | cytopathic effect / MTT | - | 32 |
| CCN1c2ncc(CCOc3ccc(-c4cc(C(=O)O)c[n+]([O-])c4)cc3C)cc2C(=O)N(C)c2cccnc21 | C8166 | RT-K103N Y181C | p24 | - | 1 |
| Cc1occc1C(=S)Nc1ccc(Cl)c(SCC=C(Cl)Cl)c1 | CEM | RT-V106A | syncytia | Nevirapine-resistant isolate (RT V106A) | 5 |
| Cc1occc1C(=S)Nc1ccc(Cl)c(C(=O)OCC2CC2)c1 | CEM + CEM-SS | RT-D67N K70R Y181C T215Y K219Q | cytopathic effect / XTT | 4XAZT/Y181C (RT D67N K70R Y181C T215Y K219Q) | 2.2 |
| C[C@H]1CO[C@@H]2Cn3cc(C(=O)NCc4ccc(F)cc4F)c(=O)c(O)c3C(=O)N12 | CBMC | N155H | RT activity | NL4-3 | 2.1 |
| CC(C)=CCN1Cc2cccc3[nH]c(=O)n(c23)CC1C | CEM + CEM-SS | RT-Y181C | cytopathic effect / XTT | UC781-R (RT-Y181C) | 118 |
| CCN1c2ncc(CCOc3ccc(-c4ccc(C(=O)O)cc4)cc3C)cc2C(=O)N(C)c2cccnc21 | C8166 | RT-K103N Y181C | p24 | - | 1 |
| Cc1occc1C(=S)Nc1ccc(Cl)c(/C=N/OC(C)(C)C)c1 | CEM + CEM-SS | RT-Y181C | cytopathic effect / XTT | NL4-3 | 6.25 |
| CC(C)=CCOc1cc(NC(=S)c2ccsc2C)ccc1Cl | CEM + CEM-SS | RT-V108I | cytopathic effect / XTT | Thiazolobenzimidazole-resistant (RT V108I) | 7.5 |
| CC=CCOc1cc(NC(=S)c2ccoc2C)ccc1OC | CEM + CEM-SS | RT-V106A | cytopathic effect / XTT | NL4-3 | 20 |
| CC(C)=CCOc1cc(NC(=S)c2ccoc2C)ccc1Cl | CEM + CEM-SS | RT-Y181C | cytopathic effect / XTT | NL4-3 | 13.3 |
| Cc1cc(S(N)(=O)=O)ccc1NC(=O)COc1ccc(Cl)cc1C(=O)c1cc(F)cc(F)c1 | HeLa + HELA CD4+ | RT-V108I Y181C | β-galactosidase | HXB2 | ~1 |
| CCN1c2ncc(CCOc3ccc(C(=O)Nc4ccccc4C(=O)O)cc3C)cc2C(=O)N(C)c2cccnc21 | C8166 | RT-K103N Y181C | p24 | - | >1 |
| CC(C)[C@H](NC(=O)OCc1ccccn1)C(=O)N[C@@H](Cc1ccccc1)[C@@H](O)C[C@H](Cc1ccccc1)NC(=O)OCc1cccnc1 | MT-4 | PR-M46I L63P V82T I84V | p24 | NL4-3 | 3.75 |
| Cc1sccc1C(=O)Nc1ccc(Cl)c(OCC=C(Cl)Cl)c1 | CEM | RT-Y188H | syncytia | HEPT-resistant (RT Y188H) | 22.2 |
| CC1=C(C(=O)Nc2ccc(Cl)c(C(=O)OC(C)C)c2)SCCO1 | CEM | RT-V106A | syncytia | IIIB | >1500 |
| Cc1cc(-c2ccc(CC(=O)O)cc2)ccc1OCCc1cnc2c(c1)C(=O)N(C)c1cccnc1N2 | C8166 | RT-K103N Y181C | p24 | - | >5 |
| Cc1occc1C(=S)Nc1ccc(Cl)c(OCC=C(Cl)Cl)c1 | CEM | RT-K103N | syncytia | TIBO R82913-resistant (RT K103N) | 32.9 |
| CCc1c(C)[nH]c(=O)c(Sc2ccccc2)c1Oc1cc(C)cc(C)c1 | MT-4 | RT-L100I K103N | cytopathic effect / MTT | - | 158 |
| Cc1cc(S(N)(=O)=O)ccc1NC(=O)COc1ccc(Cl)cc1C(=O)c1cc(Cl)cc(C#N)c1 | HeLa + HELA CD4+ | RT-V106A Y181C | β-galactosidase | HXB2 | ~1 |
| C/C(Cl)=C/COc1cc(NC(=S)c2ccoc2C)ccc1Cl | CEM | RT-L100I | syncytia | TIBO R82150-resistant (RT L100I) | 13.3 |
| CCN1c2ncc(CCOc3ccc(C(=O)Nc4cccc(CC(=O)O)c4)cc3C)cc2C(=O)N(C)c2cccnc21 | C8166 | RT-K103N Y181C | p24 | - | 1 |
| C=C(Cl)COc1cc(NC(=S)c2ccoc2C)ccc1C | CEM | RT-E138K | syncytia | TSAO-m3T-resistant (RT E138K) | 6.67 |
| CCc1c(C)[nH]c(=O)c(SC)c1Oc1cc(C)cc(C)c1 | MT-4 | RT-L100I K103N | cytopathic effect / MTT | - | 32 |
| C=CCO/N=C/c1cc(NC(=S)c2ccoc2C)ccc1Cl | CEM + CEM-SS | RT-K101E | cytopathic effect / XTT | NL4-3 | 129 |
| CCc1c(C)[nH]c(=O)c(Cl)c1Oc1cc(C)cc(C)c1 | MT-4 | RT-Y181C | cytopathic effect / MTT | - | 16 |
| CC(C)=CCOc1cc(NC(=S)c2ccoc2C)ccc1Cl | CEM | RT-V179D | syncytia | IIIB | 2 |

A second listing of 5 rows from above:

SMILES	cells	changes	read by	strain	result
CCC(=O)c1ccc(F)c([C@@H]2C[C@@H]2NC(=O)Nc2ccc(C#N)cn2)c1O	TZM-bl	NNRTI-resistant (RT K103N/G190A)	β-galactosidase / luminescence	LAI	1.6
Cc1occc1C(=S)Nc1ccc(Cl)c(C(=O)OC(C)C)c1	CEM + CEM-SS	RT-D67N K70R L100I T215Y K219Q	cytopathic effect / XTT	4xAZT/L100I(RT-D67N K70R T215Y K219Q L100I)	30
CCN1c2ncc(CCOc3ccc(C(=O)Nc4ccccc4C(=O)O)cc3C)cc2C(=O)N(C)c2cccnc21	C8166	RT-K103N Y181C	p24	-	>1
Cc1occc1C(=S)Nc1ccc(Cl)c(SCC=C(Cl)Cl)c1	CEM	RT-V106A	syncytia	Nevirapine-resistant isolate (RT V106A)	5
CC(C)=CCOc1cc(NC(=S)c2ccoc2C)ccc1Cl	CEM	RT-V179D	syncytia	IIIB	2